Laboratory results as given in patent US20260183277A1, “ANTIVIRAL PHARMACEUTICAL COMPOSITION COMPRISING ERRy INHIBITOR AS ACTIVE INGREDIENT” (priority 2024, published 2026).

Tested on: SARS-CoV-2 KCDC03
Experiment: microbe, parasite or virus in culture
Type: cell-based
Conditions: Severe acute respiratory syndrome coronavirus 2, read-out: half-maximal inhibitory concentration (IC50)

## CC(C)N1CCN(c2ccc(/C(=C(/CCCO)c3ccccc3)c3ccc(O)cc3)cc2)CC1 [DN200434]
  IC50: 1860 ± 800 nM
